We go through two molecules from US20070197446A1, “MHC binding peptides and their uses” (ProImmune Limited, priority 2006, published 2007).

For the molecule KKHNGKLCD (modifications not checked) [… (SEQ ID NO: 41)], the ELISA (Absorption-Pass/Fail Control) in the assay with HLA-B*3501 was -0.05 absorption.

As for YIVEKANPV (modifications not checked) [… (SEQ ID NO: 26)], the ELISA (Absorption-Pass/Fail Control) in the assay with HLA-A*0201 came to 1.02 absorption; with HLA-B*0801, 0.32 absorption; in the assay with HLA-B*0702 it was 0.11 absorption.
